This test concerns the target T1, V1:SidK complex (Saccharomyces cerevisiae, UniProt P16140+P17255).
T1 construct: gene VMA1

Sequences of proteins named here, by UniProt entry; tags and fusion partners are left off. A change or cut given only in a name is not applied to a line headed by its entry.
UniProt P16140, whole entry, looked up: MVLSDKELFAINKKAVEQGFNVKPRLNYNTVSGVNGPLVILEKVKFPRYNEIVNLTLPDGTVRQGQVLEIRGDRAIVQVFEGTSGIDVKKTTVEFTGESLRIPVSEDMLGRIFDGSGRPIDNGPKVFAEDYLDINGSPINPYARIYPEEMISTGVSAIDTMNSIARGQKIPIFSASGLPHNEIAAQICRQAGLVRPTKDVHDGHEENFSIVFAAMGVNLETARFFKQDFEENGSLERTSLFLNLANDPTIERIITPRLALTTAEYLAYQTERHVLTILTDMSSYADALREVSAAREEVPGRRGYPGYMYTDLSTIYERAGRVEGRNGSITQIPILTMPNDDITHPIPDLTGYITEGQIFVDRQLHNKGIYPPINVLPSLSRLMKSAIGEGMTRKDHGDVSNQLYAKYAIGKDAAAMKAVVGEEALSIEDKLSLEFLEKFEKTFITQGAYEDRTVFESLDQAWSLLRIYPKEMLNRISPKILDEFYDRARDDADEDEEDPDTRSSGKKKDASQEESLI
UniProt P17255: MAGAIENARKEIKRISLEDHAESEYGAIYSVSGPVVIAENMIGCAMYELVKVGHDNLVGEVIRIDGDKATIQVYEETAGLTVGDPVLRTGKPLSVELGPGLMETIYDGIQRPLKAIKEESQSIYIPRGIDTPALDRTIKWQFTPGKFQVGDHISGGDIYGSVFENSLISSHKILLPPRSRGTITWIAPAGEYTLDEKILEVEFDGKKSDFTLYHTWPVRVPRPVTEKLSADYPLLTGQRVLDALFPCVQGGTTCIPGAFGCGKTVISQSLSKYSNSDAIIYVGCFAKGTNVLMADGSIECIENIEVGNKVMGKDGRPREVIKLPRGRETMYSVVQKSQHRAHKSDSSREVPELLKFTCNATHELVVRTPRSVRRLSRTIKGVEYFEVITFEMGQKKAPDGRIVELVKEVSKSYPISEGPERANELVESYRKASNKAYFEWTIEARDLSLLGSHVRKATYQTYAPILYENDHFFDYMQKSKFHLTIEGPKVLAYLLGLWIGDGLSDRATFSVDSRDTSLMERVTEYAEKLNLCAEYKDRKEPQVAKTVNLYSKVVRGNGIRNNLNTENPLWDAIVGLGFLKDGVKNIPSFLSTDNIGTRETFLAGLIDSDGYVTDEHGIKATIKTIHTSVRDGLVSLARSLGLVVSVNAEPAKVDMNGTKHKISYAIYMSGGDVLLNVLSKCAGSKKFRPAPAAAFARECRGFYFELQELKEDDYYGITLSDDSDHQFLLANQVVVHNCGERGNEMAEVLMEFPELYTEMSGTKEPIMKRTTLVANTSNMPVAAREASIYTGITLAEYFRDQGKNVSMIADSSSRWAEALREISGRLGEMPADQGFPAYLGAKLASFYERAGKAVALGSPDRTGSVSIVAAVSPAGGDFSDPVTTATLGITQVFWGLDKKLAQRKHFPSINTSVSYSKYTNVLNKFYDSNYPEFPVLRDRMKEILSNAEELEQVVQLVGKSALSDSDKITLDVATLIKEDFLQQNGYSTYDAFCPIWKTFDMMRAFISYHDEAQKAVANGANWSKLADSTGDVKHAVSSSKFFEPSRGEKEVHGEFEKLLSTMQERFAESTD

Broadly, the Kd is a measure of binding affinity in units of concentration.

Consider “2',3'-O-(2,4,6-trinitrophenyl) adenosine 5'-triphosphate [TNP-ATP]”, for which the affinity, expressed as Kd, was 280 ± 60 nM.

(Values after publication PMC5469503 (PLoS Pathogens, 2017).)
